Compound potency records, mixed from different reports. Data source: NIAID ChemDB in PubChem.

Common to all: tests in culture; organism: HIV-1; read-out: EC50

ECn: concentration that inhibits the pathogen or its effect by n%. Lines come from different laboratories, so protocols vary. Blank or dashed fields: not listed here.

SMILES,strain,mutations,read by,value
COC(=O)c1cc(=O)c2c(OC)cc(N)cc2[nH]1,,,p24,0.09 µg/mL
O=c1[nH]c(SCc2cn[nH]n2)nc(-c2ccc(Cl)cc2)c1Cl,IIIB,,,0.8 µg/mL
CN1N=C(N)c2cn([C@@H]3O[C@H](COP(=O)(O)O)[C@@H](O)[C@H]3O)c3ncnc1c23,IIIB,,RT activity,0.02 µM
O=C1Nc2ccc(F)c(F)c2C(OCC=C(Cl)Cl)(C(F)(F)F)O1,,RT-K103N,,<0.183 µM
C=C(C)[C@@H]1CC[C@]2(C(=O)NCCC(C)(C)C)CC[C@]3(C)[C@H](CC[C@@H]4[C@@]5(C)CC[C@H](OC(=O)CC(C)(C)C(=O)O)C(C)(C)[C@@H]5CC[C@]43C)[C@@H]12,NL4-3,V362I,absorbance,0.052 µM
O=C1Nc2ccc(Cl)cc2C(OCCc2ccccc2)(C(F)(F)F)O1,,,,<0.1668 µM
O=c1[nH]c(SCc2cn[nH]n2)nc(-c2cccc([N+](=O)[O-])c2)c1Cl,ADA5,,,0.82 µg/mL
COC(=O)c1cc(C(=O)OC)c2c(OC)cc(N)cc2n1,,,p24,0.17 µg/mL
O=C1Nc2ccc(Cl)cc2C(OCC2CC2)(C(F)(F)F)O1,,,,<0.0077 µM
COC(=O)c1cc2c(OC)cc(C(N)=O)cc2[nH]1,,,p24,0.32 µg/mL
O=C1Nc2ccc(F)c(F)c2C(C#Cc2cccs2)(C(F)(F)F)O1,,RT-K103N,,<0.2797 µM
COC(=O)c1cc2ccc(N(C)C)cc2[nH]1,,,p24,0.65 µg/mL
Nc1ccn([C@H]2CC[C@@H](CO)O2)c(=O)n1,NL4-3,,β-galactosidase,0.43 µM
CCCc1cc(=O)oc2c3c(c4c(c12)OC(C)(C)CC4)O[C@H](C)[C@@H](C)C3=O,,RT-Y181C K103N,cytopathic effect / XTT,6.19 µM
O=C1Nc2ccc(F)cc2C(C#Cc2cccnc2)(C(F)(F)F)O1,,,,<0.00256 µM
COC(=O)c1cc2c(OC)c(CC=C(C)C)c(N)cc2[nH]1,,,p24,0.13 µg/mL

For reference, 2 entries again:

{"SMILES": "C=C(C)[C@@H]1CC[C@]2(C(=O)NCCC(C)(C)C)CC[C@]3(C)[C@H](CC[C@@H]4[C@@]5(C)CC[C@H](OC(=O)CC(C)(C)C(=O)O)C(C)(C)[C@@H]5CC[C@]43C)[C@@H]12", "strain": "NL4-3", "mutations": "V362I", "read by": "absorbance", "value": "0.052 µM"}
{"SMILES": "O=c1[nH]c(SCc2cn[nH]n2)nc(-c2cccc([N+](=O)[O-])c2)c1Cl", "strain": "ADA5", "value": "0.82 µg/mL"}